# Laboratory results: PubChem BioAssay AID449762 (Southern Research Specialized Biocontainment Screening …, 2010)
# The list shows a part of the results. Records with an inconclusive call do not appear. Active and inactive are the calls of the source. Cut-off read from the data, not from the text of the source: inconclusive = inhibition above about 70% without an active follow-up result; inactive = below that.
# Assay: M. tuberculosis growth inhibition, HTS (AID 449762);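 note: bacterial growth assessed after seven days of incubation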
# Settings: M. tuberculosis H37Rv growth inhibition, 7H9 media; at 25 µM; hits give high values
row,Compound,inhibition
1,O=C(Nc1cc([As](=O)(O)O)ccc1O)c1ccccc1,inactive: -4.4%
2,O=[N+]([O-])c1ncn(CCn2ncnc2[N+](=O)[O-])n1,inactive: 1.67%
3,CC(C)(C)C(=O)NC(Sc1ccncn1)C(Cl)(Cl)Cl (stereo not drawn),inactive: -2.32%
4,O=C(O)CNc1ccc([As](=O)(O)O)cc1,inactive: 6.66%
5,O=[N+]([O-])c1cccc(NC2=NCC(CBr)S2)c1 (stereo not drawn),inactive: -0.5%
6,COc1ccc(C2=NCC(CBr)S2)cc1 (stereo not drawn),inactive: 3.37%
7,CCc1nc2c(n1)c1c(non1O)c1c2no[n+]1[O-],inactive: 55%
8,Cc1ccc(NP(=O)(Oc2ccccc2)Oc2ccccc2)nc1,inactive: 2.83%
9,CC(=O)N1C2C3N(C(C)=O)C1C1N(C(C)=O)C(C(N1C(C)=O)N3C(C)=O)N2C(C)=O,inactive: 2.33%
10,O=[N+]([O-])c1cccc2n[nH]nc12,inactive: -2.09%
11,CCN(/C(=N/P(=O)(N1CCOCC1)N1CCOCC1)N1CCOCC1)c1ccc(OC)cc1,inactive: 8.34%
12,C[N+]1=C2C=CC=CC=C2SC12C([N+](=O)[O-])=CC([N+](=O)[O-])=C[C-]2[N+](=O)[O-] (stereo not drawn),inactive: 3.65%
13,Nc1ccc([As](=O)(O)c2ccc(N)cc2)cc1,inactive: 1.59%
14,CN(C)C(=O)OCCc1n(C)cc[n+]1C,inactive: 2.77%
15,CC(C)=N/N=C(\N)N[N+](=O)[O-],inactive: -6.83%
16,Cc1ccc(N/C(=N/P(=O)(N2CCOCC2)N2CCOCC2)N2CCOCC2)cc1,inactive: -0.93%
17,CN(C(=O)Cc1ccc(Cl)c(Cl)c1)[C@H]1CCCC[C@H]1N1CCCC1,inactive: -6.06%
18,NC(=O)c1cc([N+](=O)[O-])cc([N+](=O)[O-])c1N,inactive: 2.88%
19,CN1CCCC(OC(=O)C(c2ccccc2)c2ccccc2)C1 (stereo not drawn),inactive: -5.87%
20,Clc1ccc(Cl)c(NC2=NCC(CBr)S2)c1 (stereo not drawn),inactive: 2.89%
21,Cc1ccc(OP(=O)(Nc2nccs2)Oc2ccc(C)cc2)cc1,inactive: 3.81%
22,COc1ccccc1OP(=O)(Nc1ccc(C)cn1)Oc1ccccc1OC,inactive: 1.75%
23,O=C(NC(Sc1ccncn1)C(Cl)(Cl)Cl)c1ccccc1 (stereo not drawn),inactive: 3.97%
24,Cc1c2non([O-])c-2c(C)[n+](=O)[n+]1[O-],inactive: -8.85%
25,Oc1ccccc1CNc1ccccn1,inactive: 7.7%
26,Nc1cc(N)c2nonc2c1[N+](=O)[O-],inactive: -1.83%

row,Compound,inhibition
1,CC(C)CC(=O)NC(Sc1ccc(Cl)cc1)C(Cl)(Cl)Cl (stereo not drawn),inactive: 4.99%
2,O=P(Nc1nc2ccc(Cl)cc2s1)(c1ccccc1)c1ccccc1,inactive: 1.68%
3,CC(=O)Nc1ccc([As](=O)(O)O)cc1,inactive: -2.46%
4,O=C(O)c1ccccc1[As](=O)(O)O,inactive: -2.48%
5,CN(C(=O)Cc1ccc(Cl)c(Cl)c1)[C@H]1CCCC[C@@H]1N1CCCC1,inactive: -2.79%
6,Cc1ccc(NP(=O)(Oc2ccccc2F)Oc2ccccc2F)nc1,inactive: -0.24%
7,Cc1cc(SC(NC(=O)c2ccc(F)cc2)C(Cl)(Cl)Cl)ncn1 (stereo not drawn),inactive: 3.09%
8,CCOP(=O)(Nc1ccccc1)OCC,inactive: 1.12%
9,O=[N+]([O-])c1cc([N+](=O)[O-])c(CCN2CCOCC2)c([N+](=O)[O-])c1,inactive: 51.2%
10,Nc1cccc2ccc([As](=O)(O)O)cc12,inactive: -3.37%
11,CCN(N=Nc1nonc1N)c1nonc1N,inactive: 1.38%
12,Cc1ccc(NP(=O)(Oc2cccc(C)c2)Oc2cccc(C)c2)nc1,inactive: -1.33%
13,CCOC(=O)NC(Sc1ccccc1)C(Cl)(Cl)Cl (stereo not drawn),inactive: -5%
14,c1ccc(-c2nn[nH]n2)c(-c2nn[nH]n2)c1,inactive: -12.8%
15,O=C(NC1CCS(=O)(=O)C1)NP(=S)(Oc1ccccc1)Oc1ccccc1 (stereo not drawn),inactive: -2.34%
16,CCNC(=S)/N=C(\N)N[N+](=O)[O-],inactive: 1.2%
17,CCC(=O)N1C2C3N(C(=O)CC)C1C1N(C(=O)CC)C(C(N1C(=O)CC)N3C(=O)CC)N2C(=O)CC,inactive: -6.81%
18,O=C(OC1CN2CCC1CC2)c1ccccc1 (stereo not drawn),inactive: -4.47%
19,CC(=O)NC(SC(=S)N(CC(C)C)CC(C)C)C(Cl)(Cl)Cl (stereo not drawn),inactive: 4.23%
20,Cc1ccc(OP(=O)(Nc2ccccn2)Oc2ccc(C)cc2)cc1,inactive: -2.68%
21,COC(=O)c1cc2c(s1)N=C(c1ccccc1)N(C)P2(=O)N1CCOCC1 (stereo not drawn),inactive: -11.9%
22,CN(C)C(=O)Oc1noc2ccccc12,inactive: -4.12%
23,CC(NC(=O)COC(=O)C(O)(c1ccccc1)c1ccccc1)c1ccccc1 (stereo not drawn),inactive: -10.4%
24,Cc1ccccc1OP(=O)(Nc1ccccn1)Oc1ccccc1C,inactive: -2.05%
25,CCOc1ccc(C2=NCC(CBr)S2)cc1 (stereo not drawn),inactive: -1.96%
26,O=P1(Nc2nc3ccc(Cl)cc3s2)COc2ccccc2O1 (stereo not drawn),inactive: -2.64%

row,Compound,inhibition
1,CC(C)(C)C(=O)NC(Sc1ccccc1)C(Cl)(Cl)Cl (stereo not drawn),inactive: -2.37%
2,C[C@H]1OP(=O)(Oc2ccccc2)C[C@@H]2O[C@@H]21 (stereo partly drawn),inactive: -1.15%
3,C[C@@H]1C=CCP(=O)(Oc2ccccc2)O1 (stereo partly drawn),inactive: -4.78%
4,Cc1ccccc1CN(C)C(=O)COC(=O)C(O)(c1ccccc1)c1ccccc1,inactive: -2.65%
5,CC(=O)c1ccc(N2CC2c2ccncc2)cc1 (stereo not drawn),inactive: -9.24%
6,CC(=O)Nc1ccc(Oc2c([N+](=O)[O-])cc([N+](=O)[O-])cc2[N+](=O)[O-])cc1,inactive: 3.45%
7,CC(=O)Nc1ccc([As](=O)(O)O)c(O)c1,inactive: -1.4%
8,O=P(Nc1nccs1)(c1ccccc1)c1ccccc1,inactive: -0.12%
9,CC(C)C(=O)NC(Sc1ccccc1)C(Cl)(Cl)Cl (stereo not drawn),inactive: 4.25%
10,c1nnnn1CCn1cnnn1,inactive: -11.2%
11,CN(C)C1(CNC(=O)c2ccc(Cl)c(S(N)(=O)=O)c2)CCCCC1,inactive: 4.14%
12,O=P(Nc1ccccn1)(c1ccc(Br)cc1)c1ccc(Br)cc1,inactive: 22.4%
13,C[C@H]1OP(=O)(Oc2ccccc2)[C@H](O)[C@H](O)[C@H]1N=[N+]=[N-] (stereo partly drawn),inactive: -4.12%
14,O=P(Nc1nc2ccccc2s1)(c1ccccc1)c1ccccc1,inactive: -2.63%
15,O=[As](O)(c1ccccc1)c1ccc(O)cc1,inactive: -14.8%
16,O=[N+]([O-])c1ncn(CCn2cnc([N+](=O)[O-])n2)n1,inactive: 3.76%
17,O=C(OC1CN2CCC1CC2)c1cccc(Cl)c1 (stereo not drawn),inactive: -6.37%
18,C(Cc1nn[nH]n1)Cc1nn[nH]n1,inactive: 0.27%
19,Nc1ccc([As](=O)(O)c2ccc([N+](=O)[O-])cc2)cc1,inactive: 4.13%
20,Cc1ccc(C(=O)OC2CN3CCC2CC3)cc1 (stereo not drawn),inactive: -18.5%
21,CC1CCC(C(C)C)C(OP(=O)(Nc2ccccn2)c2ccccc2)C1 (stereo not drawn),inactive: 4.72%
22,Cc1nn(-c2ccccc2)c2c1P(=O)(N1CCOCC1)N(C)C(c1ccccc1)=N2 (stereo not drawn),inactive: -1.66%
23,CN(C)C1(CNC(=O)c2ccc(S(C)(=O)=O)cc2)CCCCC1,inactive: 3.69%
24,O=C(/C=C/c1ccccc1)OC1CN2CCC1CC2 (stereo not drawn),inactive: 2.38%
25,O=P1(Nc2ncccn2)COc2ccccc2OC1,inactive: -5.86%
26,Nc1cccc([As](=O)(O)c2ccccc2)c1,inactive: -5.47%

row,Compound,inhibition
1,Cc1ccc(OCC(=O)OC2CN3CCC2CC3)cc1 (stereo not drawn),inactive: -0.76%
2,O=[As](O)(c1cccs1)c1cccs1,inactive: 0.29%
3,NS(=O)(=O)c1cccc(NC(=O)COC(=O)C(O)(c2ccccc2)c2ccccc2)c1,inactive: -5.91%
4,O=P1(Nc2ccc(Br)cn2)COc2ccccc2OC1,inactive: -6.49%
5,CCOP(=O)(NC(=NC(C)c1ccccc1)NC(C)c1ccccc1)OCC (stereo not drawn),inactive: -6.15%
6,O=P1(Nc2ccccn2)COc2ccccc2OC1,inactive: -0.09%
7,CCOP(=O)(Nc1ccc(C)cn1)OCC,inactive: 2.56%
8,CN(CCCl)Cc1cc(Cl)c(NC2=NCCN2)c(Cl)c1,inactive: 6.02%
9,CC(C)(C)C(=O)NC(Sc1ncccn1)C(Cl)(Cl)Cl (stereo not drawn),inactive: -3.66%
10,Clc1n[nH]nc1-c1nn[nH][15n]1,inactive: 2.7%
11,COc1ccccc1CNC(=O)COC(=O)C(O)(c1ccccc1)c1ccccc1,inactive: -1.19%
12,CN(C(=O)Cc1ccc(Cl)c(Cl)c1)[C@@H]1CCCC[C@H]1N1CCCC1,inactive: 2.58%
13,CC(C)/C=N\N=C(\N)N[N+](=O)[O-],inactive: -0.73%
14,CC1(CBr)Cn2c(nc3ccccc3c2=O)S1 (stereo not drawn),inactive: -6.61%
15,O=[As](O)(c1ccccc1Br)c1ccccc1Br,inactive: 7.17%
16,O=C(OC1CN2CCC1CC2)c1ccc(Cl)cc1 (stereo not drawn),inactive: -13.8%
17,CS(=O)(=O)c1ccc(Cl)c(NC(=O)COC(=O)C(O)(c2ccccc2)c2ccccc2)c1,inactive: 3.64%
18,O=[As](O)(O)c1cccnc1,inactive: -5.07%
19,COc1cc(C(=O)NCC2(N3CCOCC3)CCCCC2)cc(Cl)c1OC(C)C,inactive: -0.96%
20,Cc1cccc(OCC(=O)OC2CN3CCC2CC3)c1 (stereo not drawn),inactive: -5.14%
21,O=[As](O)(c1cccc(O)c1)c1cccc(O)c1,inactive: 13.2%
22,Nc1cccc2c([As](=O)(O)O)cccc12,inactive: -6.59%
23,CCCOP(=S)(Nc1nc(N)cc(=O)[nH]1)OCCC,inactive: -5.38%
24,CCOP(=O)(Nc1cccc2ccccc12)OCC,inactive: 4.75%
25,COc1cc(C2NCCC3(OCCO3)C2(C)C)cc(OC)c1OC (stereo not drawn),inactive: -1.41%
